In publication PMC4592236, “Pathogen- and Host-Directed Antileishmanial Effects Mediated by Polyhexanide (PHMB)” (PLoS Neglected Tropical Diseases, 2015):
Like-named read-outs stand apart in the source and are kept apart here.

Tested on: intracellular L. major amastigotes
Format: cell-based, Leishmania major
Procedure: The assay is based on bioluminescence measurement of firefly luciferase, which catalyzes the formation of light from ATP and luciferin. The virulent luciferase-transgenic (Luc-tg) L. major strain containing a firefly luciferase reporter gene was maintained by continuous passage in female BALB/c mice and was grown in 96-well blood agar cultures at 27°C, 5% CO2, and 95% humidity. A luciferase-transgenic L. major strain was used to infect BMDM according to our recently established protocol. Briefly, BMDM numbers were adjusted to 2 × 10^5, cultured in 96-well plates and incubated for 4 h to allow adherence to the surface. The promastigote number was adjusted to 3 × 10^6 parasites per ml to achieve an infection rate of 1:15. Then, infection was made by discarding the supernatant of the cultured cells and replacing it with an equal volume of complete RPMI medium containing the promastigotes' suspension. After incubating the infected BMDM (37°C, 5% CO2) for 24 h to allow full differentiation of the promastigotes into amastigotes, the medium containing the extracellular parasites was removed and the wells were washed three times with the same RPMI medium. Five serial dilutions of each substance (1:5) in the same fresh RPMI medium were added to the infected BMDM in duplicate with the appropriate controls. After further 24 h of incubation at 37°C and 5% CO2, the infected BMDM were lysed with a luciferin-containing buffer (Britelite, PerkinElmer, Germany) and luminescence was measured with a luminescence plate reader, Victor X Light 2030 luminometer (PerkinElmer). The IC50 values of the compounds against intracellular amastigotes were calculated based on the intercept theorem, as previously described.

Row | SMILES | SI amastigotes (mean IC50 against BMDM / mean IC50 against L. major amastigotes) | SI amastigotes
1 | CCCCCCCCCCCCCCCCOP(=O)([O-])OCC[N+](C)(C)C [Miltefosine, 1-hexadecylphosphorylcholine] | 1.4 | 
2 | C[C@@H]1[C@H](O)[C@@H](C)/C=C/C=C/C=C/C=C/C=C/C=C/C=C/[C@H](O[C@@H]2O[C@H](C)[C@@H](O)[C@H](N)[C@@H]2O)C[C@@H]2O[C@](O)(C[C@@H](O)C[C@@H](O)[C@H](O)CC[C@@H](O)C[C@@H](O)CC(=O)O[C@H]1C)C[C@H](O)[C@H]2C(=O)O [Amphotericin B, amphotericin B] |  | >208
3 | N=C(N)c1ccc(OCCCCCOc2ccc(C(=N)N)cc2)cc1 [Pentamidine, pentamidine isothionate] |  | 20
